Pooled drug test results. Numbers come from NIAID ChemDB, via PubChem.

Common to all: whole-cell or culture tests; species: Hepatitis C virus

Neighbouring rows are from separate reports. ECn is the concentration giving n% inhibition of infection, replication or growth. An empty or dashed field is not shown. a–b is a range or a potency band.

smiles,read by,conditions,cell line,strain or isolate,read-out,changes,value
Cn1c(-c2ccccn2)c(C2CCCCC2)c2ccc(C(=O)N[C@@]3(C(=O)Nc4ccc(-c5cncnc5)cc4)CCNC3)cc21,replicon,genotype 1b,,,EC50,,0.172 µM
O=C(/C=C/c1ccc(C(F)(F)F)cc1F)NO,luciferase / replicon,,Huh7,GT1b,EC50,,0.5 µM
Cn1c(C(=O)O)cc2cc(NC(=O)C(C)(C)NC(=O)c3ccc4c(C5CCCCC5)c(-c5ccccn5)n(C)c4c3)ccc21,replicon,genotype 1b,,,EC50,,0.179 µM
CCOC(=O)c1cnc2c(cnn2CC)c1NN=C(C)C,luminescence,,n4mBid,,EC50,,8 µM
NC(=S)c1cn([C@@H]2O[C@H](CO)[C@@H](O)[C@H]2O)c2nc[nH]c(=O)c12,replicon,,,,EC50,,25 µM
C=C[C@@H]1C[C@]1(NC(=O)[C@@H]1C[C@@H](Oc2cc(-c3ccccc3)nc3cc(OC)ccc23)CN1C(=O)[C@@H](NC(=O)OC1CCOC1)C(C)(C)C)C(=O)NS(=O)(=O)C1CC1,replicon,,Huh7,1b,EC50,,<0.05 µM
NC(=O)c1ncn([C@@H]2O[C@H](CO)[C@@H](O)[C@H]2O)n1,luciferase / replicon,,Huh7.5.1,JFH-1,EC50,,>10 µM
C[C@@]1(O)[C@H](O)[C@@H](CO)O[C@H]1c1ccc2c(N)ncnn12,PCR,,Huh7.5,GT2a (JFH1),EC50,,0.58 µM
C[C@@]1(O)[C@H](O)[C@@H](CO)O[C@H]1n1cnc2c(N)ncnc21,luciferase,,Huh7 replicon,4a ED43,EC50,,0.16 µM
C[C@@]1(O)[C@H](O)[C@@H](CO)O[C@H]1n1ccc2c(N)ncnc21,replicon,24 h,,,EC50,,0.3 µM
C=C[C@@H]1C[C@]1(NC(=O)[C@@H]1C[C@@H](Oc2cc(-c3ccccc3)nc3cc(OC)ccc23)CN1C(=O)[C@@H](NC(=O)CF)C(C)(C)C)C(=O)NS(=O)(=O)C1CC1,replicon,,Huh7,1b,EC50,,<0.05 µM
CCO[C@@H]1[C@H](OCC)[C@@H](OCC)C=C2c3cc4c(cc3C(=O)N(CC)[C@H]21)OCO4,antigen / microscopy,,Huh7.5,Synthesized HCV RNA,EC50,,>83 µM
CN(C)c1ncnc2c1c(C#N)cn2[C@@H]1O[C@H](CO)[C@@H](O)[C@H]1O,replicon,,,,EC50,,3 µM
CCOc1nc(N)nc2c1ncn2[C@@H]1O[C@H](COP(=O)(N[C@@H](C)C(=O)OC(C)C)Oc2ccccc2)[C@@H](F)[C@@]1(C)O,luciferase,,Huh7,,EC50,,<1 µM
CN1CCCC(NC(=O)c2ccc3c(C4CCCCC4)c(-c4ccccn4)n(C)c3c2)(C(=O)Nc2ccc(/C=C/C(=O)O)cc2)C1,replicon,genotype 1b,,,EC50,,0.14 µM
N=C1Sc2ccccc2C2=NCCCN12,luminescence,,n4mBid,,EC50,,12 µM
C[C@@]1(O)[C@H](O)[C@@H](CO)O[C@H]1n1cnc2c(N)nc(N)nc21,PCR,,Huh7,,EC90,,>10 µM
C=C[C@H]1CN2CC[C@H]1C[C@@H]2[C@@H](O)c1ccnc2ccc(OC)cc12,luminescence,,n4mBid,,EC50,,4.2 µM
CCOc1nc(N)nc2c1ncn2[C@@H]1O[C@H](COP(=S)(N[C@@H](C)C(=O)OC2CCCCC2)Oc2ccccc2)[C@@H](F)[C@@]1(C)O,luciferase,,Huh7,,EC50,,1–10 µM
CN1CCC(NC(=O)c2ccc3c(C4CCCCC4)c(-c4ccccn4)n(C)c3c2)(C(=O)Nc2ccc(/C=C/C(=O)O)cc2)CC1,replicon,genotype 1b,,,EC50,,0.065 µM
CNc1ncnc2c1c(C(=N)N)cn2[C@@H]1O[C@H](CO)[C@@H](O)[C@H]1O,replicon,,,,EC50,,0.6 µM
Nc1ccn([C@@H]2CS[C@H](CO)O2)c(=O)n1,luciferase,,,,EC50,,>150 µM
CC(C)(C)OC(=O)N[C@@H]1CCCCC/C=C\[C@@H]2C[C@@]2(C(=O)NS(=O)(=O)C2CC2)NC(=O)[C@@H]2C[C@@H](OC(=O)N3Cc4cccc(F)c4C3)CN2C1=O,antigen,,Huh7.5,JFH-1,EC50,L1062M R1181K,4.307 µM
C=CC(C)(C)c1cc(/C=C/C(=O)c2ccc(O)cc2)c(OC)cc1O,microscopy / fluorescence,,Huh7.5,2a,EC50,,2.5 µg/mL
COc1ncnc2c1c(C#N)cn2[C@@H]1O[C@H](CO)[C@@H](O)[C@H]1O,replicon,,,,EC50,,0.4 µM
CCOc1nc(N)nc2c1ncn2[C@@H]1O[C@H](COP(=O)(N[C@@H](C)C(=O)OCC(C)(C)C)Oc2ccccc2Cl)[C@@H](F)[C@@]1(C)O,luciferase,,Huh7,,EC50,,<1 µM
O=c1ccn([C@@H]2O[C@H](CO)C[C@H]2O)c(=O)[nH]1,luciferase,,,,EC50,,>150 µM
CC(C)Nc1ncnc2c1c(C#N)cn2[C@@H]1O[C@H](CO)[C@@H](O)[C@H]1O,replicon,,,,EC50,,8 µM
C[C@@]1(O)[C@H](O)[C@@H](CO)O[C@H]1n1ccc2c(N)nc(N)nc21,,,Huh7,,EC50,,<100 µM
COc1cc2oc(=O)c(-c3ccc(O)cc3O)cc2c(OC)c1CC=C(C)C,microscopy / fluorescence,,Huh7.5,2a,EC50,,7.2 µg/mL
C=C[C@@H]1C[C@]1(NC(=O)[C@@H]1C[C@@H](c2nc(-c3ccccc3)cs2)CN1C(=O)C(NC(=O)OC1CCCC1)C(C)(C)C)C(=O)NS(=O)(=O)C1CC1,replicon,,Huh7 cells,,EC50,,0.43 µM
C[C@@]1(O)[C@H](O)[C@@H](CO)O[C@H]1n1cnc2c(N)ncnc21,,,Huh7,,EC50,,<100 µM
COc1c(CC=C(C)C)c(O)cc2oc(=O)c(-c3ccc(O)cc3O)cc12,microscopy / fluorescence,,Huh7.5,2a,EC50,,8.8 µg/mL
CCOC(=O)C1=C(C)NC(C)=C(C(=O)OC)C1c1cccc(Cl)c1Cl,luminescence,,n4mBid,,EC50,,9.5 µM
C=C[C@@H]1C[C@]1(NC(=O)[C@@H]1C[C@@H](Oc2cc(-c3ccccc3)nc3cc(OC)ccc23)CN1C(=O)[C@@H](NC(=O)Oc1ccc(OC)cc1)C(C)(C)C)C(=O)NS(=O)(=O)C1CC1,replicon,,Huh7,1b,EC50,,<0.5 µM
Fc1ccc(C(c2ccc(F)cc2)N2CCN(C/C=C/c3ccccc3)CC2)cc1,luminescence,,n4mBid,,EC50,,2.1 µM
Nc1ncnc2c1ncn2[C@@H]1O[C@H](CO)C[C@H]1O,,,,,EC50,,46 µM
COC(=O)[C@H](C)NP(=O)(OC[C@H]1O[C@@H](n2ccc3c(N)ncnc32)[C@](C)(O)[C@@H]1O)Oc1ccccc1,,,Huh7,,EC50,,<100 µM
C[C@@]1(O)[C@H](F)[C@@H](CO)O[C@H]1n1cnc2c(=O)[nH]c(N)nc21,luciferase,,Huh7,,EC50,,10–100 µM
C[C@@]1(O)[C@H](O)[C@@H](CO)O[C@H]1n1cnc2c(N)ncnc21,replicon,,Huh7,CLONE A S282T,EC90,,>100 µM
C[C@@]1(O)[C@H](O)[C@@H](CO)O[C@H]1c1coc2c(N)ncnc12,replicon,24 h,,,EC50,,22 µM
CC(C)n1c(/C=C/[C@@H](O)C[C@@H](O)CC(=O)O)c(-c2ccc(F)cc2)c2ccccc21,luciferase / replicon,,Huh 9-13,,EC50,,4.2 µM
C[C@@]1(O)[C@H](O)[C@@H](CO)O[C@H]1n1ccc2c(N)ncnc21,,,Huh7,,EC50,,<100 µM
CCC[C@H](NC(=O)[C@@H]1[C@H]2CCC[C@H]2CN1C(=O)[C@@H](NC(=O)[C@@H](NC(=O)c1cnccn1)C1CCCCC1)C(C)(C)C)C(=O)C(=O)NC1CC1,antigen,,Huh7.5,JCH4,EC50,,0.778 µM
COc1c(C)c2c(c(O)c1CC(=O)O)C(=O)OC2,luciferase / replicon,,Huh7.5.1,JFH-1,EC50,,0.468 µM
[N-]=[N+]=N[C@]1(CO)O[C@@H](n2ccc(N)nc2=O)[C@H](O)[C@@H]1O,luciferase,,1C,Con1,EC50,,2.4 µM
COC(=O)N[C@H](C(=O)N1CCC[C@H]1c1ncc(-c2ccc(-c3ccc(-c4cnc([C@@H]5CCCN5C(=O)[C@@H](NC(=O)OC)C(C)C)[nH]4)cc3)cc2)[nH]1)C(C)C,GFP / fluorescence,,Huh7.5.1,J399EM,EC50,,0.000054 µM
C[C@H](NP(=O)(OC[C@H]1O[C@@H](n2cnc3c(=O)[nH]c(N)nc32)[C@](C)(O)[C@@H]1F)Oc1ccccc1Cl)C(=O)OCC(C)(C)C,luciferase,,Huh7,,EC50,,10–100 µM
CC(C)(C)NC(=O)N[C@H](C(=O)N1C[C@H]2[C@@H]([C@H]1C(=O)NC(CC1CCC1)C(=O)C(N)=O)C2(C)C)C(C)(C)C,PCR,,Huh7,1a H77,EC50,T1280A S1358P D1431P D1431N F1809L I1839V,0.55 µM
CCC[C@]1(CC(=O)O)OCCc2c1[nH]c1c(C)ccc(C#N)c21,replicon,,,C316Y,EC50,,10.8 µM
Cn1c(-c2ccccn2)c(C2CCCCC2)c2ccc(C(=O)NC3(C(=O)Nc4ccc(-c5cnc(N)nc5)cc4)CCC3)cc21,replicon,genotype 1b,,,EC50,,0.218 µM
CNc1ncnc2c1c(/C(N)=N/O)cn2[C@@H]1O[C@H](CO)[C@@H](O)[C@H]1O,replicon,,,,EC50,,3.7 µM
C[C@@]1(O)[C@H](O)[C@@H](CO)O[C@H]1n1ccc2c(N)ncnc21,PCR,,,,EC50,,0.3 µM
CCC(NC(=O)C1CCC1C(=O)[C@@H](NC(=O)[C@@H](NC(=O)c1cnccn1)C1CCCCC1)C(C)(C)C)C(=O)C(=O)NC1CC1,PCR,,Huh7,,EC50,,>10 µM
Cn1c(-c2ccccn2)c(C2CCCCC2)c2ccc(C(=O)NC3(C(=O)Nc4ccc(/C=C/C(=O)O)cc4)CCC3)cc21,replicon,genotype 1b,,,EC50,,0.047 µM
CCOc1nc(N)nc2c1ncn2[C@@H]1O[C@H](COP(=S)(N[C@@H](C)C(=O)OCC(C)(C)C)Oc2ccccc2)[C@@H](F)[C@@]1(C)O,luciferase,,Huh7,,EC50,,1–10 µM